# Laboratory results reported in PMC7105911 (Journal of Molecular Biology, 2011).
# T1: 2F5 peptide EQELLELDKWASLW (full-length 2F5 epitope, gp41 657-670) (Human immunodeficiency virus type 1, …)
# T1 chain: EQELLELDKWASLW
# T2: 2F5 peptide LELDKWA (gp41 661-667) (HIV-1 gp41 661-667, HXB2 numbering; …)
# T2 chain: LELDKWA
# T3: 2F5 peptide ELDKWA (gp41 662-667) (HIV-1 gp41 662-667, HXB2 numbering; …)
# T3 chain: ELDKWA
# Assays:
# Test in all cases: SPR
# [1] = biological target: T1, 2F5 peptide EQELLELDKWASLW (full-length …)
# [2] = biological target: T2, 2F5 peptide LELDKWA (gp41 661-667)
# [3] = biological target: T3, 2F5 peptide ELDKWA (gp41 662-667)
# [4] = biological target: T1, 2F5 peptide EQELLELDKWASLW (full-length …)
binder,measurement,setting,value
"2F5 monoclonal antibody (2F5 IgG) (antibody, V domains shown) VH: RITLKESGPPLVKPTQTLTLTCSFSGFSLSDFGVGVGWIRQPPGKALEWLAIIYSDDDKRYSPSLNTRLTITKDTSKNQVVLVMTRVSPVDTATYFCAHRRGPTTLFGVPIARGPVNAMDVWGQGITVTISS VL: ALQLTQSPSSLSASVGDRITITCRASQGVTSALAWYRQKPGSPPQLLIYDASSLESGVPSRFSGSGSGTEFTLTISTLRPEDFATYYCQQLHFYPHTFGGGTRVDVR",Kd,[1],4.5 nM
same,Kd,[2],144 nM and 142 nM
same,koff,[2],0.101 s⁻¹
same,kon,[2],700000 M⁻¹ s⁻¹
same,Kd,[3],2300 nM
same,koff,[3],0.185 s⁻¹
same,kon,[3],80100 M⁻¹ s⁻¹
same,Kd,[4],4.1 nM
same,koff,[4],0.00606 s⁻¹
same,kon,[4],1.45e+06 M⁻¹ s⁻¹

# Values joined by “and” are separate entries in the source; they are usually repeats but may differ in a detail not shown here. Equal entries are not always repeated. Where two headings read alike, the source gives them in different places.
